Measured values from several laboratories, pooled; numbers as filed in NIAID ChemDB.

All rows: tests in culture; organism: HIV-1; measure: inhibition

An empty or dashed field is not shown.

compound	dose	method	changes	setting	strain	cells	value
NCCSSCCN	100 µM	p24			BaL	Macrophage	72%
C[C@@H](O)[C@H](NC(=O)[C@@H](N)CC(N)=O)C(=O)N[C@@H](CO)C(=O)N[C@@H](Cc1ccc(O)cc1)C(=O)NCC(=O)O	0.001 µM	RT activity			LAV	A3.01	82.6%
COC(=O)CCCCCCCCCCNC(=O)[C@]12CCC(C)(C)C[C@H]1C1=CC[C@@H]3[C@@]4(C)C[C@@H](O)[C@H](O)C(C)(C)[C@@H]4CC[C@@]3(C)[C@]1(C)CC2	25 µM	p24 / ELISA			pNL4-3	MT-2	64.4%
Fc1cccc(Cl)c1C1SCc2nc3cc4ccccc4cc3n21	200 µM				RF	CEM + CEM-SS	0.41%
CCCCCCCCCCCC(=O)N(CCCCCCCCCCC(=O)O)CC(O)C(O)C(O[C@@H]1O[C@H](CO)[C@H](O)[C@H](O)[C@H]1O)C(O)CO	201 µM	syncytia			LAI	C8166	100%
N#Cc1cccc(C2SCc3nc4cc5ccccc5cc4n32)c1	200 µM				RF	CEM + CEM-SS	8.54%
O=C(C(=O)N1CCN(C(=O)c2ccccc2)CC1)c1c[nH]c2cc(F)c(Br)c(F)c12	10 µM	luciferase				HeLa + HELA CD4+/CCR5	97%
CCc1nn(CCN)c(CC)c1Oc1cc(Cl)cc(C#N)c1	0.024 µM				RF	SupT1	90%
CCN(CC)C(=O)OCC1CN(Cc2cc(OC)c(OC)c(OC)c2)CCN1Cc1cc(OC)c(OC)c(OC)c1	10 µM	RT activity			BaL	MDM	75%
CC(C)CN(C[C@@H](O)[C@H](Cc1ccccc1)NC(=O)O[C@H]1CO[C@H]2OCC[C@H]21)S(=O)(=O)c1ccc2nc(NC3CCN(C4CCCC4)CC3)sc2c1	5 nM	p24			SF2	PBMC	90%
O=C(O)c1cn(Cc2cccc(F)c2)c2c(ccc3ccccc32)c1=O	100 µM	p24 / ELISA			NL4-3	HeLa	<10%
O=C(CCCCCCCCCCC(=O)Nc1cc(S(=O)(=O)O)cc2cc(S(=O)(=O)O)cc(O)c12)Nc1cc(S(=O)(=O)O)cc2cc(S(=O)(=O)O)cc(O)c12	2.5 µg/mL	syncytia				MOLT-3	65%
CC(C)(C)c1ccc(C(=O)N2CCN(C(=O)C(=O)c3c[nH]c4ccccc34)CC2)cc1	10 µM	RT activity			BRU	MT-2	47.9%
COC(=O)CCCNC(=O)[C@]12CCC(C)(C)C[C@H]1C1=CC[C@@H]3[C@@]4(C)C[C@@H](O)[C@H](O)C(C)(C)[C@@H]4CC[C@@]3(C)[C@]1(C)CC2	10 µM	p24 / ELISA			pNL4-3	MT-2	67.5%
CC(C)(C)NC(=O)[C@@H]1CCCN1C(=O)[C@@H](O)[C@H](Cc1ccccc1)NC(=O)[C@H](CC(N)=O)NC(=O)OCc1ccccc1	5 µM	RT activity	PR-I84V		pNL432(PR-I84V)	MOLT-4	0%
CC1=C(C(=O)O)C(c2ccccc2)NC(=O)N1	100 µM	p24 / ELISA				HEK293T	1.84%
Cc1cccc(C)c1OCC(=O)N[C@@H](Cc1ccccc1)[C@H](O)[C@@H](O)[C@@H]1CCCN1C(=O)COc1c(C)cccc1C	0.0000001 µM	MTT			IIIB	MT-2	13%
CC[C@H](CO)Nc1nc(NCc2ccc(-c3ccccc3)cc2)n2ncc(C(C)C)c2n1	0.05 µM	trypan blue				ACH2	1–5%
Nc1nc(NC2CC2)c2ncn([C@H]3C=C[C@@H](CO)C3)c2n1	0.25 µM	p24			MSO Clinical isolate	PBMC	59%
NCCSSCCN	50 µM	p24			BaL	Macrophage	55%
CCCCCCCCNCC(O)CCCCCCCCCn1c(=O)c2c(ncn2C)n(C)c1=O	5 µM	p24			LAV	U1(HIV-1 (LAV)) + U1	80%
O=C(C(=O)N1CCN(C(=O)c2ccco2)CC1)c1c[nH]c2cccc(F)c12	10 µM	luciferase				HeLa + HELA CD4+/CCR5	>98%
CC(C)[C@H](NC(=O)[C@]12CCC(C)(C)C[C@H]1C1=CC[C@@H]3[C@@]4(C)C[C@@H](O)[C@H](O)C(C)(C)[C@@H]4CC[C@@]3(C)[C@]1(C)CC2)C(=O)O	25 µM	p24 / ELISA			pNL4-3	MT-2	-21.2%
OCCCCCCOc1ccc(-c2ccccc2)cc1	7.5 µg/mL	syncytia			GB8	JM	72%
CC1=C(C(=O)OCc2ccccc2)C(c2ccc(F)cc2)NC(=O)N1	100 µM	p24 / ELISA				HEK293T	4.7%
Cc1cc2ccccc2c(-c2ccc3c4c(ccnc24)CCO3)c1[C@H](OC(C)(C)C)C(=O)O	0.016 µM	p24			HXB2	PBMC	95%
O=C(O)c1c(-c2ccccc2)[nH]c2ccccc2c1=O	100 µM	p24 / ELISA			NL4-3	HeLa	<10%
Cc1cn([C@H]2C[C@H](O)[C@@H](C[N+](C)(C)CCCO)O2)c(=O)[nH]c1=O	100 µM	plaque count / syncytia			IIIB	CEM + CEM-SS	31%
C[C@H]1[C@H](O)[C@@H](C)/C=C/C=C/C=C/C=C/C=C/C=C/C=C/[C@H](O[C@@H]2O[C@H](C)[C@@H](O)[C@H](N)[C@@H]2O)C[C@@H]2O[C@](O)(C[C@@H](O)C[C@@H](O)CC[C@H](O)[C@@H](O)C[C@@H](O)CC(=O)O[C@H]1C)C[C@H](O)[C@H]2C(=O)O	10.9 µM	p24 / RT activity			92RW009 CLADE A X4/R5(SI)	PBMC	90%
C=C(C)[C@@H]1CC[C@]2(C(=O)NCCCCCCCC(=O)N[C@@H](CC(C)C)[C@@H](O)CC(=O)O)CC[C@]3(C)[C@H](CC[C@@H]4[C@@]5(C)CC[C@H](O)C(C)(C)[C@@H]5CC[C@]43C)[C@@H]12	10 µM	syncytia	R22A I84S		LAI-R(GP41-R22A I84S)	HeLa P4 + HeLa	31%
CO[C@H]1C[C@@H]2CC[C@@H](C)[C@@](O)(O2)C(=O)C(=O)N2CCCC[C@H]2C(=O)O[C@H]([C@H](C)C[C@@H]2CC[C@@H](O)[C@H](OC)C2)CC(=O)[C@H](C)/C=C(\C)[C@@H](O)[C@@H](OC)C(=O)[C@H](C)C[C@H](C)/C=C/C=C/C=C/1C	0.0001 µM	p24			ADA R5	PBMC	48%
C[C@H]1CN(C(=O)c2ccccc2)CCN1C(=O)C(=O)c1c[nH]c2ccc(F)cc12	10 µM	luciferase				HeLa + HELA CD4+/CCR5	95%
CC1=N/C(=C/c2cccc(Cl)c2)C(=O)N1n1c(-c2ccccc2)nc2ccccc2c1=O	0.64 µM	cytopathic effect / XTT			RF	CEM + CEM-SS	35%
Nc1ncnc2c1ncn2COCCOP(=O)([O-])O[C@@H]1[C@H](O)[C@@H](COP(=O)([O-])O[C@@H]2[C@H](O)[C@@H](CO)O[C@H]2n2cnc3c(N)ncnc32)O[C@H]1n1cnc2c(N)ncnc21	300 µM	RT activity				SupT1 + Sup-T1	63%
C[C@H]1[C@@H](OC(=O)CCC(=O)O)O[C@@H]2O[C@@]3(C)CC[C@H]4[C@H](C)CC[C@@H]1[C@@]24OO3	0.6 µM	p24			NL4-3	Jurkat cells	48%
CCCCOc1c(OC)cc(C(=O)N2CCN(Cc3ccccc3)CC2COC(=O)N(CC)CC)cc1OC	5 µM	RT activity			BaL	MDM	40%
CC(C)[C@H](NC(=O)[C@H](CO)NC(=O)[C@H](CS)NC(=O)CCC(=O)NCCCOCCOCCCN)C(=O)N[C@H](C(=O)N[C@@H](CS)C(=O)NCC(=O)O)[C@@H](C)O	0.66 µM	p24			BaL	PBMC(PHA STIM.) + PBMC	23%
Nc1ncnc2c1ncn2[C@@H]1O[C@H](COP(=O)(O)O[C@@H]2[C@H](O)[C@@H](COP(=O)(O)O[C@@H]3[C@H](O)[C@@H](CO)O[C@H]3n3cnc4c(N)ncnc43)O[C@H]2n2cnc3c(N)ncnc32)[C@@H](O)[C@H]1O	300 µM	RT activity				SupT1 + Sup-T1	10%
Nc1ccn([C@H]2CC[C@@H](CO)O2)c(=O)n1	0.5 µM	cytopathic effect / trypan blue			LAV	MT-2	60%
O=c1oc2cc(O)cc(O)c2c(O)c1-c1coc2c1c(=O)oc1cc(O)cc(O)c12	5 µM	MTT			IIIB	MT-4	75%
CC1=C(C(=O)OCc2ccccc2)C(c2cccc([N+](=O)[O-])c2)NC(=O)N1	100 µM	p24 / ELISA				HEK293T	52.2%
COc1c(C)c2c(c(O)c1C/C=C(\C)CCC(=O)O)C(=O)OC2	10 µM	RT activity			SF162	PBL(CD4+) + PBL	100%
CCOCn1c2c(c(=O)[nH]c1=O)Cc1ccccc1C2	5 µM				IIIB	C8166	37%
C[C@@H](O)[C@H](N)C(=O)N[C@H](C(=O)N[C@@H](CC(N)=O)C(=O)N[C@H](Cc1ccc(O)cc1)C(=O)N[C@H](C(=O)O)[C@@H](C)O)[C@@H](C)O	0.001 µM	RT activity			LAV	A3.01	29.4%
C=CC(C)(/C=C\c1ccc(O)cc1)c1ccc(O)cc1.NC(=O)NO	0.00232 µM	p24			BaL	Macrophage	90%
CCCCCC1CN(C(=O)C(=O)c2c[nH]c3c(C(=O)OC)cccc23)CCN1C(=O)c1ccccc1	10 µM	luciferase				HeLa + HELA CD4+/CCR5	59%
CC(=O)CCC(=O)NCCCOCCOCCCNC(=O)CNC(=O)[C@H](CS)NC(=O)[C@@H](NC(=O)[C@@H](NC(=O)[C@H](CO)NC(=O)[C@@H](N)CS)C(C)C)[C@@H](C)O	1.32 µM	p24			BaL	PBMC(PHA STIM.) + PBMC	35%
COC(=O)CCCCCNC(=O)[C@]12CCC(C)(C)C[C@H]1C1=CC[C@@H]3[C@@]4(C)C[C@@H](O)[C@H](O)C(C)(C)[C@@H]4CC[C@@]3(C)[C@]1(C)CC2	10 µM	p24 / ELISA			pNL4-3	MT-2	30.4%
O=C1c2ccccc2C(=O)c2c1ccc(O)c2O	50 µg/mL	cytopathic effect			IIIB	SupT1 + Sup-T1	37%
c1ccc2c(-c3ccc(-c4ccc(-c5ccc(-c6cccc7ccccc67)s5)c5ccccc45)s3)cccc2c1	2 µM	p24 / ELISA / antigen			IIIB	C8166	47.06%
Nc1nc2c(ncn2[C@@H]2O[C@H](CO)C[C@@H]2F)c(=O)[nH]1	100 µM	cytopathic effect / XTT			LAI	ATH-8 + ATH8	66%
COc1cc(N=Nc2cc(S(=O)(=O)O)cc3cc(S(=O)(=O)O)cc(O)c23)c(C)cc1NC(=O)Nc1cc(C)c(N=Nc2cc(S(=O)(=O)O)cc3cc(S(=O)(=O)O)cc(O)c23)cc1OC	100 µM	RT activity			LAV-BR	PBL	97%
O=P(O)(O)OP(=O)(O)OP(=O)(O)OP(=O)(O)O	160 µg/mL	syncytia			IIIB	MOLT-4/MOLT-3	12.5%
C[C@@H]1C[C@H](CC(=O)O)OC[C@@H]1N(C)C	10 µM			pseudotyped		293T	0.7%
Cc1ccc(-c2ccc3c(c2)C=C(C(=O)Nc2ccc(C[N+](C)(C)C4CCOCC4)cc2)CCC3)cc1	1 µM	p24			Du422 CLADE C	PBMC	100%
N=C1Sc2ccccc2C2=NCCCN12	4.26 µM	MTS			93BR021	PBMC	90%
O=C(C(=O)N1CCN(C(=O)c2ccccc2)CC1)c1c[nH]c2cccc(Br)c12	10 µM	luciferase				HeLa + HELA CD4+/CCR5	>98%
C[C@H](NC(=O)CCCCCNC(=O)[C@]12CCC(C)(C)C[C@H]1C1=CC[C@@H]3[C@@]4(C)C[C@@H](O)[C@H](O)C(C)(C)[C@@H]4CC[C@@]3(C)[C@]1(C)CC2)C(=O)O	10 µM	p24 / ELISA			pNL4-3	MT-2	-7%
COc1cccc2[nH]cc(C(=O)C(=O)N3CCN(C(=O)c4cccc(NC(=O)OC(C)(C)C)c4)C[C@H]3C)c12	10 µM	luciferase				HeLa + HELA CD4+/CCR5	95%
CCN(CC)C(=O)OCC1CN(C(=O)c2ccc(OC)c(OC)c2)CCN1C(=O)c1ccc(OC)c(OC)c1	10 µM	RT activity			BaL	MDM	42%
O=C(O)[C@H]1O[C@@H](Oc2cc3oc(-c4ccccc4)cc(=O)c3c(O)c2O)[C@H](O)[C@@H](O)[C@@H]1O	40 µM				ENV(BAL31)	HOS-CD4-CXCR4 + HOS	80%
COc1ccnc2[nH]cc(C(=O)C(=O)N3CCN(C(=O)c4ccccc4)C[C@H]3C)c12	100 µM	p24 / ELISA				HEK293T	100%
CC1(C)CC[C@]2(C(=O)NCCCCCC(=O)O)CC[C@]3(C)C(=CC[C@@H]4[C@@]5(C)C[C@@H](O)[C@H](O)C(C)(C)[C@@H]5CC[C@]43C)[C@@H]2C1	25 µM	p24 / ELISA			pNL4-3	MT-2	20.7%
COc1cccc2[nH]cc(C(=O)C(=O)N3CCN(C(=O)c4ccccc4)CC3)c12	10 µM	luciferase				HeLa + HELA CD4+/CCR5	>98%
CC(C)C[C@@H](C=O)NC(=O)[C@H](CC(C)C)NC(=O)[C@H](CC(C)C)NC(=O)OCc1ccccc1	40 µM	p24			NL4-3	A3.01	54%
CC(=O)N1CCC(C(=O)N(CCCN2CCC(Cc3ccc(C(N)=O)cc3)CC2)c2ccc(C)c(Cl)c2)CC1	0.028 µM	p24			HNK Clinical isolates	PBMC	90%
CCN(CC)C(=O)OCC1CN(Cc2noc(=O)[nH]2)CCN1C(=O)c1cc(OC)c(OC)c(OC)c1	100 µM	RT activity			BaL	MDM	13%

For reference, 8 entries again:

compound | dose | method | changes | setting | strain | cells | value
CC[C@H](CO)Nc1nc(NCc2ccc(-c3ccccc3)cc2)n2ncc(C(C)C)c2n1 | 0.05 µM | trypan blue |  |  |  | ACH2 | 1–5%
N#Cc1cccc(C2SCc3nc4cc5ccccc5cc4n32)c1 | 200 µM |  |  |  | RF | CEM + CEM-SS | 8.54%
Nc1nc(NC2CC2)c2ncn([C@H]3C=C[C@@H](CO)C3)c2n1 | 0.25 µM | p24 |  |  | MSO Clinical isolate | PBMC | 59%
C[C@@H](O)[C@H](NC(=O)[C@@H](N)CC(N)=O)C(=O)N[C@@H](CO)C(=O)N[C@@H](Cc1ccc(O)cc1)C(=O)NCC(=O)O | 0.001 µM | RT activity |  |  | LAV | A3.01 | 82.6%
Nc1nc2c(ncn2[C@@H]2O[C@H](CO)C[C@@H]2F)c(=O)[nH]1 | 100 µM | cytopathic effect / XTT |  |  | LAI | ATH-8 + ATH8 | 66%
CC(C)(C)c1ccc(C(=O)N2CCN(C(=O)C(=O)c3c[nH]c4ccccc34)CC2)cc1 | 10 µM | RT activity |  |  | BRU | MT-2 | 47.9%
CC1=C(C(=O)OCc2ccccc2)C(c2cccc([N+](=O)[O-])c2)NC(=O)N1 | 100 µM | p24 / ELISA |  |  |  | HEK293T | 52.2%
CC1=C(C(=O)O)C(c2ccccc2)NC(=O)N1 | 100 µM | p24 / ELISA |  |  |  | HEK293T | 1.84%

Inhibition is in % at the dose shown (toxicity tests: loss of growth or viability). Two numbers with a dash give a range or band. Lines come from different laboratories, so protocols vary.